Results on one substance are retold here after patent publication US11375715B2, “Long lasting disinfectant cleaning composition comprising an amne oxide/nonionic surfactant mixture” (RHODIA OPERATIONS, priority 2019, dated 2022).

The nature of the data set: ASTM D4488 wallboard cleaning test.

Take “Tristyrylphenol ethoxylate - 8EO [TSP-8EO]”: the “effect on cleaning performance of adding nonionic surfactant to Formulation A” value (added to Formulation A at 0.5% actives, FIG. 7) is “dramatic improvement in cleaning performance”. In addition, the “effect on cleaning performance of adding surfactant to Formulation A” value (different levels added to Formulation A, pH 4.5, FIG. 4) is listed as “drastically improves cleaning at levels above 0.5%”.
